Anti-infective test results gathered from many reports (values: NIAID ChemDB through PubChem).

All rows: whole-cell or culture tests; agent: Staphylococcus aureus

MIC50, MIC90 and the like: level of inhibition, or share of isolates inhibited. Conditions beyond the fields shown may differ between rows.

COCCN(CCOC)c1cc2c(cc1F)c(=O)c(C(=O)O)cn2C1CC1 ; strain or isolate: ATCC 6538P ; endpoint: MIC ; result: >100 µg/mL
Cc1c(NCCCO)c(F)cc2c(=O)c(C(=O)O)cn(-c3cc(N)c(F)cc3F)c12 ; strain or isolate: 27 isolates ; endpoint: MIC50 ; result: 0.03 µg/mL
CCCCCCCCCCCC[N+](C)(C)COCC ; strain or isolate: ATCC 6538 ; endpoint: MBC ; result: 9.76 µM
Cc1c(N)c(F)cc2c(=O)c(C(=O)O)cn(-c3cc(N)c(F)cc3F)c12 ; strain or isolate: W806 (methicillin-resistant) ; endpoint: MIC ; result: 2 µg/mL
CCCCCCCCCCOC[N+](C)(C)CCCCCCCC ; strain or isolate: ATCC33592 ; endpoint: MIC ; result: 13.7 µM
O=C(O)c1cn(C2CC2)c2cc(N3CCOCC3)c(F)cc2c1=O ; strain or isolate: ATCC 6538P ; endpoint: MIC ; result: 1.56 µg/mL
CCCCCCCCCCCC[N+](C)(C)COC1CCCCCC1 ; strain or isolate: ATCC 6538 ; endpoint: MBC ; result: 26.6 µM
N#Cc1ccc(N2CCN(c3ccc(N4C[C@H](COc5ccncn5)OC4=O)cc3F)CC2)nc1 ; strain or isolate: 004 (methicillin quinolone-resistant) ; endpoint: MIC ; result: 2 µg/mL
CNCCCCCCN(C)c1cc2c(cc1F)c(=O)c(C(=O)O)cn2C1CC1 ; strain or isolate: ATCC 6538P ; endpoint: MIC ; result: 12.5 µg/mL
CCCCCCCC[N+](C)(C)COCC(CC)CCCC ; strain or isolate: ATCC33592 ; endpoint: MIC ; result: 7.4 µM
Cc1c(NC(C)C)c(F)cc2c(=O)c(C(=O)O)cn(-c3cc(N)c(F)cc3F)c12 ; strain or isolate: W200 (methicillin-resistant) ; endpoint: MIC ; result: 0.008 µg/mL
O=C1O[C@@H](COc2ccon2)CN1c1ccc(-n2ccnn2)c(F)c1 ; strain or isolate: 004 (methicillin quinolone-resistant) ; endpoint: MIC ; result: 4 µg/mL
CC1(C)CC(CNc2cc3c(cc2F)c(=O)c(C(=O)O)cn3C2CC2)CC(C)(C)N1 ; strain or isolate: ATCC 6538P ; endpoint: MIC ; result: >100 µg/mL
O=C1O[C@@H](COc2ccon2)CN1c1ccc(N2CCOCC2)c(F)c1 ; strain or isolate: 122 (novobiocin-resistant) ; endpoint: MIC ; result: 4 µg/mL
CN(C)CCCN(C)c1cc2c(cc1F)c(=O)c(C(=O)O)cn2C1CC1 ; strain or isolate: ATCC 6538P ; endpoint: MIC ; result: 0.78 µg/mL
O=C1O[C@@H](CNc2ccon2)CN1c1ccc(-n2ccnc2)c(F)c1 ; strain or isolate: 122 (novobiocin-resistant) ; endpoint: MIC ; result: 0.25 µg/mL
CCCCCCCCCCCC[N+](C)(C)COCCCCCCCC ; strain or isolate: ATCC33592 ; endpoint: MBC ; result: 3.82 µM
CCNCCNc1cc2c(cc1F)c(=O)c(C(=O)O)cn2C1CC1 ; strain or isolate: ATCC 5278 (methicillin-resistant) ; endpoint: MIC ; result: >100 µg/mL

For reference, 3 entries again:

compound,strain or isolate,endpoint,result
CCCCCCCCCCCC[N+](C)(C)COCCCCCCCC,ATCC33592,MBC,3.82 µM
CCCCCCCCCCOC[N+](C)(C)CCCCCCCC,ATCC33592,MIC,13.7 µM
CCNCCNc1cc2c(cc1F)c(=O)c(C(=O)O)cn2C1CC1,ATCC 5278 (methicillin-resistant),MIC,>100 µg/mL